From publication PMC9701186 (2022) come the findings set out here.

In assay [1] the target is T1, CCHFV IbAr10200 GP38 (Crimean-Congo hemorrhagic fever virus, …, UniProt Q8JSZ3 248-519).
T1 chain: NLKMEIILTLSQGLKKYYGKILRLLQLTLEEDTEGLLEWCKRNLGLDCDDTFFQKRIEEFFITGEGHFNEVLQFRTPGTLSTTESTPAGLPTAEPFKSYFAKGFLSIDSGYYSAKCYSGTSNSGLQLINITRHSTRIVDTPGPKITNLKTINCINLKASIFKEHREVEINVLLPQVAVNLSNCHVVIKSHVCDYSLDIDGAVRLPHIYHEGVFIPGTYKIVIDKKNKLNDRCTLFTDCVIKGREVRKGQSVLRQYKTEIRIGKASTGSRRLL
Nature of the assay: BLI. On the technique in general: Biolayer interferometry detects binding as a change in optical thickness at a sensor tip.

Assay [2] deals with T2, CCHFV Turkey-2004 GP38 (Crimean-Congo hemorrhagic fever virus, …).
T2 chain: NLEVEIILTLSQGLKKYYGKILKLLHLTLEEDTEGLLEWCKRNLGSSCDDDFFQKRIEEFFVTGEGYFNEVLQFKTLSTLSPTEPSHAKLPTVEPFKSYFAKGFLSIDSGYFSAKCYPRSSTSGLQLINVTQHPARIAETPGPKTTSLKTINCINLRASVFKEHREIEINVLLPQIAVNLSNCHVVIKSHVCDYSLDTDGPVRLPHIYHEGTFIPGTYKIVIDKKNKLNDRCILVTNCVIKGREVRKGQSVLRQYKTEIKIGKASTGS
Nature of the assay: BLI.

The term Kd denotes the free concentration of one partner at which half of the binding sites on the other are occupied at equilibrium, for simple one-to-one binding. A high value points to lower affinity.

B1: human chimeric 13G8 mAb (c13G8) (antibody, V domains shown)
VH: DVQLQQSGPGLVAPSQSLSITCTVSGFSLTNYGIHWVRQPPGKGLEWLGVIWAGGYTKYNSALMSRLSMSKDNSKSQVFLKMNSLQTDDTAMYYCARDEVRRDYYAMDHWGQGTTVTVSS
VL: DIQMTQSPAILSASPGEKVTMTCWASSGVSYMHWYQQKPGSSPKPWIFATSNLASGVPARFSGSGSGTSYSLTISRVEAEDAATYYCQQWSFNPLTFGAGTKLEIK
Consider B1, for which the Kd in assay [1] came to 0.52 nM; in assay [2], 0.56 nM.
